The subject of data set [1] is CC(=O)Oc1ccc([N+](=O)[O-])cc1. Briefly: purified protein. Particulars: pH 8.0; 30.0 °C.
In data set [2] the test system is CCCC(=O)Oc1ccc([N+](=O)[O-])cc1. Nature of the data set: purified protein. Particulars: pH 8.0; 30.0 °C.

The Km is the concentration of substrate that gives half-maximal velocity. With “PE11 (LipX; Rv1169c) (Mycobacterium tuberculosis H37Rv)”, the Km came to 20.362 ± 5.372 µM in data set [1] and 6.929 ± 0.3193 µM in data set [2].

These data come from doi:10.1101/2024.06.18.599654v1.
